From PMC9312377
“And” between values parts separate entries of the source, which are not always exact repeats. Equal values may be shown once.

Key:
Experiment in all cases: Modified thermofluor assay, BXA-rPAN thermal stabilization
[1] = test system: recombinant A(H3N2) PAN E23G
[2] = test system: recombinant A(H3N2) PAN E23K+I38T
[3] = target: recombinant A(H1N1)pdm09 PAN I38T (Influenza A virus, UniProt C3W5S0, DEL51-57/DEL61-72/E59G/I38T); conditions: for SYPRO Orange signal: 37uM BXA
[4] = test system: recombinant A(H3N2) PAN I38T

`O=C1c2c(O)c(=O)ccn2N([C@@H]2c3ccccc3SCc3c2ccc(F)c3F)[C@@H]2COCCN12` was tested, and the “Tm (°C) with BXA” value ([1]; A(H3N2) PAN E23G 2 μM, BXA 37 μM) was 74.3 ± 0.3 °C and 74.3 °C, the “ΔTm (°C)” value ([1]; A(H3N2) PAN E23G, DMSO vs BXA 37 μM) was 23.0 ± 0.2 °C and the “Tm (°C) with BXA” value ([2]; A(H3N2) PAN E23K+I38T 2 μM, BXA 37 μM) was 63 °C and 63.0 ± 0.6 °C. The “ΔTm (°C)” value ([2]; A(H3N2) PAN E23K+I38T, DMSO vs BXA 37 μM) was 14.3 ± 0.4 °C, the “SYPRO Orange signal” value ([3]; 30 °C) was 1299.91 RFU and 851.818 RFU and 903.99 RFU and the “SYPRO Orange signal” value ([3]; 31 °C) was 1564.82 RFU and 1263.46 RFU and 787.996 RFU. For the same molecule, the “SYPRO Orange signal” value ([3]; 49 °C) was 2247.52 RFU and 1796.01 RFU and 1136.39 RFU, the “SYPRO Orange signal” value ([3]; 50 °C) was 2001.99 RFU and 1396.33 RFU and 1227.29 RFU and the “SYPRO Orange signal” value ([3]; 51 °C) was 1895.02 RFU and 1693.5 RFU and 1461.08 RFU. For the same molecule, the “SYPRO Orange signal” value ([3]; 52 °C) was 2127.88 RFU and 1692.41 RFU and 1501.6 RFU, the “SYPRO Orange signal” value ([3]; 53 °C) was 1957.97 RFU and 1693.1 RFU and 1718.06 RFU and the “SYPRO Orange signal” value ([3]; 54 °C) was 1720.84 RFU and 1802.57 RFU and 1870.42 RFU. The “SYPRO Orange signal” value ([3]; 55 °C) was 1937.37 RFU and 1884.01 RFU and 2066.49 RFU, the “SYPRO Orange signal” value ([3]; 56 °C) was 2073.92 RFU and 2397.82 RFU and 2635.47 RFU and the “SYPRO Orange signal” value ([3]; 57 °C) was 2292.17 RFU and 2452.04 RFU and 2685.19 RFU. The “SYPRO Orange signal” value ([3]; 58 °C) was 2738.53 RFU and 2898.24 RFU and 3062.87 RFU, the “SYPRO Orange signal” value ([3]; 59 °C) was 3318.2 RFU and 3209.02 RFU and 3477.71 RFU and the “SYPRO Orange signal” value ([3]; 60 °C) was 3363.96 RFU and 3668.88 RFU and 3924.88 RFU. The “SYPRO Orange signal” value ([3]; 61 °C) was 3853.39 RFU and 3664.25 RFU and 3834.77 RFU, the “SYPRO Orange signal” value ([3]; 62 °C) was 4836.81 RFU and 4136.99 RFU and 4393.19 RFU and the “SYPRO Orange signal” value ([3]; 63 °C) was 4849.11 RFU and 4511.87 RFU and 4652.86 RFU. For the same molecule, the “SYPRO Orange signal” value ([3]; 64 °C) was 5516.71 RFU and 5592.07 RFU and 5143.16 RFU, the “SYPRO Orange signal” value ([3]; 65 °C) was 6729.72 RFU and 6402.93 RFU and 5968.15 RFU and the “SYPRO Orange signal” value ([3]; 66 °C) was 7713.28 RFU and 7718.71 RFU and 6958.89 RFU. The “Tm (°C) with BXA” value ([3]; A(H1N1)pdm09 PAN I38T 2 μM, BXA 37 μM) was 72 °C and 72.0 ± 0.1 °C, the “ΔTm (°C)” value ([3]; A(H1N1)pdm09 PAN I38T, DMSO vs BXA 37 μM) was 17 °C and 16.5 ± 0.3 °C and the “SYPRO Orange signal” value ([3]; Panel A, I38T, 67 °C) was 9597.38 RFU and 10066.3 RFU and 8623.01 RFU. The “SYPRO Orange signal” value ([3]; Panel A, I38T, 68 °C) was 12884 RFU and 13139.6 RFU and 11636.1 RFU, the “SYPRO Orange signal” value ([3]; Panel A, I38T, 69 °C) was 19022.2 RFU and 19552.6 RFU and 17294.2 RFU and the “SYPRO Orange signal” value ([3]; Panel A, I38T, 70 °C) was 31613.6 RFU and 31759.2 RFU and 28793.5 RFU. For the same molecule, the “SYPRO Orange signal” value ([3]; Panel A, I38T, 71 °C) was 52366 RFU and 52700 RFU and 47281.7 RFU, the “SYPRO Orange signal” value ([3]; Panel A, I38T, 72 °C) was 83543.3 RFU and 84131.3 RFU and 74463.7 RFU and the “SYPRO Orange signal” value ([3]; Panel A, I38T, 73 °C) was 122437 RFU and 123348 RFU and 108724 RFU. For the same molecule, the “SYPRO Orange signal” value ([3]; Panel A, I38T, 74 °C) was 162048 RFU and 162863 RFU and 142896 RFU, the “SYPRO Orange signal” value ([3]; Panel A, I38T, 75 °C) was 190851 RFU and 191513 RFU and 170131 RFU and the “SYPRO Orange signal” value ([3]; Panel A, I38T, 76 °C) was 205077 RFU and 206371 RFU and 185658 RFU. For the same molecule, the “SYPRO Orange signal” value ([3]; Panel A, I38T, 77 °C) was 210165 RFU and 210781 RFU and 192634 RFU, the “SYPRO Orange signal” value ([3]; Panel A, I38T, 78 °C) was 209150 RFU and 210784 RFU and 193823 RFU and the “SYPRO Orange signal” value ([3]; Panel A, I38T, 79 °C) was 206694 RFU and 208114 RFU and 190661 RFU. For the same molecule, the “SYPRO Orange signal” value ([3]; Panel A, I38T, 80 °C) was 203427 RFU and 205882 RFU and 185759 RFU, the “SYPRO Orange signal” value ([3]; Panel A, I38T, 81 °C) was 199552 RFU and 202668 RFU and 181374 RFU and the “SYPRO Orange signal” value ([3]; Panel A, I38T, 82 °C) was 195514 RFU and 198629 RFU and 177283 RFU. The “SYPRO Orange signal” value ([3]; Panel A, I38T, 83 °C) was 190636 RFU and 194840 RFU and 174255 RFU, the “SYPRO Orange signal” value ([3]; Panel A, I38T, 84 °C) was 185514 RFU and 190246 RFU and 170108 RFU and the “SYPRO Orange signal” value ([3]; Panel A, I38T, 85 °C) was 180418 RFU and 185986 RFU and 165690 RFU. For the same molecule, the “SYPRO Orange signal” value ([3]; Panel A, I38T, 86 °C) was 175587 RFU and 181075 RFU and 160644 RFU, the “SYPRO Orange signal” value ([3]; Panel A, I38T, 87 °C) was 170536 RFU and 175966 RFU and 155809 RFU and the “SYPRO Orange signal” value ([3]; Panel A, I38T, 88 °C) was 166059 RFU and 170500 RFU and 150986 RFU. The “SYPRO Orange signal” value ([3]; Panel A, I38T, 89 °C) was 160522 RFU and 165436 RFU and 144826 RFU, the “SYPRO Orange signal” value ([3]; Panel A, I38T, 90 °C) was 156438 RFU and 160598 RFU and 140189 RFU and the “SYPRO Orange signal” value ([3]; Panel A, I38T, 91 °C) was 151733 RFU and 155292 RFU and 131294 RFU. For the same molecule, the “SYPRO Orange signal” value ([3]; Panel A, I38T, 92 °C) was 146764 RFU and 150444 RFU and 124391 RFU, the “SYPRO Orange signal” value ([3]; Panel A, I38T, 93 °C) was 141983 RFU and 143209 RFU and 121201 RFU and the “SYPRO Orange signal” value ([3]; Panel A, I38T, 94 °C) was 136042 RFU and 136243 RFU and 110907 RFU. For the same molecule, the “SYPRO Orange signal” value ([3]; Panel A, I38T, 95 °C) was 129394 RFU and 133137 RFU and 100413 RFU, the “SYPRO Orange signal” value ([3]; Panel A, I38T, 96 °C) was 124588 RFU and 130001 RFU and 96179.2 RFU and the “SYPRO Orange signal” value ([3]; Panel A, I38T, 97 °C) was 118532 RFU and 123762 RFU and 93689 RFU. The “SYPRO Orange signal” value ([3]; Panel A, I38T, 98 °C) was 113271 RFU and 118019 RFU and 90882.6 RFU, the “SYPRO Orange signal” value ([3]; Panel A, I38T, 99 °C) was 103659 RFU and 109684 RFU and 94215.6 RFU and the “Tm (°C) with BXA” value ([4]; A(H3N2) PAN I38T 2 μM, BXA 37 μM) was 70 °C and 70.0 ± 0.1 °C. The “ΔTm (°C)” value ([4]; A(H3N2) PAN I38T, DMSO vs BXA 37 μM) was 16 °C and 16.1 ± 0.2 °C.
